Broadly, the kcat is the maximal rate divided by the concentration of active sites.

The data set relates to CC(C)(CO)C(=O)C(=O)O. As to the kind of experiment: purified protein. The following applies: NADPH 50 µM, 100 mM HEPES pH 7.5, 50 mM NaCl, 25 °C, Hill fit.

Take “KPR (ketopantoate reductase) (Staphylococcus aureus; A181L)”: the K0.5 amounted to 8100 ± 100 µM and the kcat amounted to 18.2 s⁻¹.

The values are drawn from article PMC4668926 (Biochemistry, 2015).
